Test system: latent HIV-1
Assay: Reactivation of latent HIV-1 in absence or presence of γc-cytokines
Assay type: cell-based
Conditions: cytokine by itself, compared with absence of cytokines
Experimental: Latently infected cells were generated using healthy, uninfected DONOR 78 cells that were infected with DHIV virus. Reactivation was monitored by analysis of p24Gag by Flow Cytometry 72 hours after stimulation. HOBt was tested in the presence or absence of IL-2, a γc-cytokine required for survival of the cells in vivo.

## IL-2: γc-cytokine required for survival of the cells
  viral reactivation by cytokine alone: trend towards increasing viral reactivation

Source: US9730928B2, “Trizol-1-OL analogs anti-retroviral latency drugs” (priority 2013, dated 2017)
